Reference: patent publication US20030224403A1 (priority 2002, published 2003)

Tested on: RAW 264.7 cells
Assay type: cell-based, mouse

## IL-2: murine interleukin-2
  effect of murine cytokine on cell lysis by LeTx: without effect
